Data as given in PubChem BioAssay AID624099 (ICCB-Longwood, 2012).

- Screen: 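Host factors E2 relies on to silence an HPV18 LCR reporter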 (primary screen)
- Cells: human C33A cervical carcinoma cells (HPV-negative) stably expressing BPV1 E2 and an HPV18 LCR luciferase reporter
- Reagents: siRNA pool against human genes, 40 nM
- Timing: 72 h
- Measurement: 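HPV18 LCR reporter light per well, converted to plate-wise z-scores that exclude control wells, and averaged over triplicate plates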
- Reading the numbers: mean z-score and z-score: higher = stronger reporter signal, weaker E2 silencing
- Call rule: 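Mean z ≥ 2 together with z ≥ 2 in two or more of the three replicates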
Shown is an unselected part of about 21,000 reagents tested. 497 of them (2.4%) count as active. 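Higher z means weaker E2 silencing; only reporter increases were scored, and knock-downs that hurt cell survival may mask genuine repressor factors.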 Reagents against one gene are numbered here. No sequences are given here.

| target | reagent no. | mean z-score | z-score, replicate A | z-score, replicate B | z-score, replicate C | Outcome |
| --- | --- | --- | --- | --- | --- | --- |
| CHST6 (carbohydrate sulfotransferase 6) | 1 | -1.34 | -1.05 | -1.04 | -1.93 | inactive |
| E2F7 (E2F transcription factor 7) | 1 | 0.78 | 0.53 | 1.1 | 0.71 | inactive |
| ZNF576 (zinc finger protein 576) | 1 | 0.47 | 0.67 | 0.16 | 0.59 | inactive |
| GREM2 (gremlin 2, DAN family BMP antagonist) | 1 | 1.73 | 1.94 | 1.73 | 1.52 | inactive |
| NOTO (notochord homeobox) | 1 | 4.44 | 3.93 | 4.6 | 4.77 | active |
| TECRL (trans-2,3-enoyl-CoA reductase like) | 1 | -0.83 | -1.17 | -0.87 | -0.43 | inactive |
| HSPA9 (heat shock protein family A (Hsp70) member 9) | 1 | 0.45 | 0.77 | 0.46 | 0.12 | inactive |
| FOXD4L3 (forkhead box D4 like 3) | 1 | 0.61 | 0.67 | 0.56 | 0.59 | inactive |
| FOXD4L3 (forkhead box D4 like 3) | 2 | 1.63 | 1.51 | 1.8 | 1.58 | inactive |
| SH3RF3 (SH3 domain containing ring finger 3) | 1 | -2.25 | -2.07 | -2.14 | -2.55 | inactive |
| ZNF850 (zinc finger protein 850) | 1 | -0.65 | -0.79 | -0.29 | -0.87 | inactive |
| MTIF2 (mitochondrial translational initiation factor 2) | 1 | 0.92 | 1.12 | 0.58 | 1.06 | inactive |
| ZNF496 (zinc finger protein 496) | 1 | -1.56 | -1.81 | -1.61 | -1.27 | inactive |
| FZD7 (frizzled class receptor 7) | 1 | 0.91 | 0.76 | 0.93 | 1.04 | inactive |
| EID2B (EP300 interacting inhibitor of differentiation 2B) | 1 | -0.03 | -0.25 | -0.15 | 0.3 | inactive |
| SWT1 (SWT1 RNA endoribonuclease homolog) | 1 | -1.63 | -1.65 | -1.62 | -1.62 | inactive |
| ZNF713 (zinc finger protein 713) | 1 | 0.32 | 0.21 | 0.39 | 0.34 | inactive |
| PDSS1 (decaprenyl diphosphate synthase subunit 1) | 1 | -0.18 | -0.35 | -0.1 | -0.08 | inactive |
| RBM19 (RNA binding motif protein 19) | 1 | -0.9 | -0.92 | -1 | -0.79 | inactive |
| TOMM22P3 (TOMM22 pseudogene 3) | 1 | 0.29 | 0.2 | 0.17 | 0.49 | inactive |
| C19orf73 (chromosome 19 open reading frame 73) | 1 | 0.82 | 0.75 | 0.59 | 1.12 | inactive |
| KIAA1755 | 1 | 0.15 | 0.29 | 0.25 | -0.1 | inactive |
| MATCAP2 (microtubule associated tyrosine carboxypeptidase 2) | 1 | 0.28 | 0.09 | 0.43 | 0.33 | inactive |
| NOVA1-DT (NOVA1 divergent transcript) | 1 | 0.06 | 0.29 | -0.14 | 0.03 | inactive |
| LCN10 (lipocalin 10) | 1 | -0.03 | 0 | -0.21 | 0.14 | inactive |
| PNMA8B (PNMA family member 8B) | 1 | -1.67 | -1.9 | -1.47 | -1.65 | inactive |
| TEX264 (testis expressed 264, ER-phagy receptor) | 1 | 1.89 | 2.47 | 1.47 | 1.73 | inactive |
| ALDH3A1 (aldehyde dehydrogenase 3 family member A1) | 1 | -0.84 | -0.44 | -1.3 | -0.78 | inactive |
| FDX2 (ferredoxin 2) | 1 | -2.29 | -2.58 | -2 | -2.28 | inactive |
| MCCD1 (mitochondrial coiled-coil domain 1) | 1 | 0.35 | 0.33 | 0.35 | 0.35 | inactive |
| PPIG (peptidylprolyl isomerase G) | 1 | 1.39 | 1.54 | 1.46 | 1.18 | inactive |
| CEP126 (centrosomal protein 126) | 1 | 0.71 | 1.06 | 0.43 | 0.64 | inactive |
| CYP11B1 (cytochrome P450 family 11 subfamily B member 1) | 1 | -0.79 | -0.44 | -1.05 | -0.9 | inactive |
| LOC391062 (retired record) | 1 | -0.55 | -0.1 | -0.44 | -1.11 | inactive |
| ZNF70 (zinc finger protein 70) | 1 | 0.48 | 0.69 | 0.59 | 0.16 | inactive |
| XPO4 (exportin 4) | 1 | 0.19 | -0.21 | 0.32 | 0.46 | inactive |
| H3Y1 (H3.Y histone 1) | 1 | -2.35 | -2.86 | -2.04 | -2.16 | inactive |
| CETN2 (centrin 2) | 1 | -0.11 | -0.02 | -0.07 | -0.24 | inactive |
| SRSF2P1 (SRSF2 pseudogene 1) | 1 | -0.9 | -0.68 | -0.97 | -1.03 | inactive |

Records listed so far whose gene name starts with H or h:
| target | reagent no. | mean z-score | z-score, replicate A | z-score, replicate B | z-score, replicate C | Outcome |
| --- | --- | --- | --- | --- | --- | --- |
| HSPA9 (heat shock protein family A (Hsp70) member 9) | 1 | 0.45 | 0.77 | 0.46 | 0.12 | inactive |
| H3Y1 (H3.Y histone 1) | 1 | -2.35 | -2.86 | -2.04 | -2.16 | inactive |
